The values below come from publication PMC5465072, “Targeting Bacillus anthracis toxicity with a genetically selected inhibitor of the PA/CMG2 protein-protein interaction” (Scientific Reports, 2017).

By UniProt entry, the sequences of proteins in these tests, tags left out. Residues count along the entry.
UniProt P58335, 38-218 limits assumed: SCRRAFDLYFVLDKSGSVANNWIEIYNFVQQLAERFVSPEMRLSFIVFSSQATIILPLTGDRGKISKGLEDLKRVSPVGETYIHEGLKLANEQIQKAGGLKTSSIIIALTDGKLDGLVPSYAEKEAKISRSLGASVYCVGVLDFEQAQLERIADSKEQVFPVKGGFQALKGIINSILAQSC

In this test the target is CMG2_38–218 (Homo sapiens, UniProt P58335). Put plainly: Microscale thermophoresis (MST) binding to CMG2. Conditions: relative to CLRFT.

Take `CC(C)C[C@H](NC(=O)[C@@H](N)CS)C(=O)N[C@@H](CCCNC(=N)N)C(=O)N[C@@H](Cc1ccc(O)cc1)C(=O)N[C@H](C(=O)O)[C@@H](C)O`: the “fold reduction in binding affinity for CMG2 (partly printed as reduction in Kd) versus CLRFT” value (“fold reduction in binding affinity” below) is reported as 3 fold.
Still for that read-out and setting: the result for `CC(C)C[C@H](NC(=O)[C@@H](N)CS)C(=O)N[C@@H](CCCNC(=N)N)C(=O)N[C@@H](CCc1ccccc1)C(=O)N[C@H](C(=O)O)[C@@H](C)O` reads 2.5 fold.
Regarding `CC(C)C[C@H](NC(=O)[C@@H](N)CS)C(=O)N[C@@H](CCCNC(=N)N)C(=O)N[C@@H](Cc1ccc(Cl)cc1)C(=O)N[C@H](C(=O)O)[C@@H](C)O`, the “fold increase in affinity for CMG2 versus CLRFT” value is reported as 2 fold.
For `CC(C)C[C@H](NC(=O)[C@@H](N)CS)C(=O)N[C@@H](CCCNC(=N)N)C(=O)N[C@@H](Cc1ccc(C#N)cc1)C(=O)N[C@H](C(=O)O)[C@@H](C)O`, the “fold reduction in binding affinity” value was found to be 2 fold.
Regarding `CC(C)C[C@H](NC(=O)[C@@H](N)CS)C(=O)N[C@@H](CCCNC(=N)N)C(=O)N[C@H](C(=O)N[C@H](C(=O)O)[C@@H](C)O)c1ccccc1`, the “fold reduction in binding affinity” value was determined as 2 fold.
